This is an account of results in paper PMC6465249 (Cell Discovery, 2019).

The target in test [1] is Hemagglutinin of H3N2 A/Aichi/2/1968 on virus-infected cells (Influenza A virus A/Aichi/2/1968 (H3N2), UniProt P03437, strain). The experiment in a line: immunostaining of cells or tissue.
The target in test [2] is Hemagglutinin of H4N6 A/duck/Czech/1956 on virus-infected cells (Influenza A virus A/duck/Czech/1956 …, UniProt P19696, strain). The experiment in a line: immunostaining of cells or tissue.

B1: AF4H1K1 IgG (antibody, V domains shown)
VH: QVQLVESGGGVVQPGTSLRLSCEASGFTSSAYAMHWVRQAPGKGLEWVAVITFDGGYQYYADSVKGRFTISRDISRNTLHLHMNSLRAEDTAVYYCARDPLTKLLPFDWVSGGYFDYWGQGTLVTVSS
VL: not shown
notes: also called huMAb AF4H1K1; copies: 2 + 2
Consider B1, for which the binding result in test [1] and in test [2] was “binds” in each case.
